For the series, the target named is T1, RNase H (Escherichia coli) (UniProt P0A7Y4).
T1 sequence (looked up, limits assumed): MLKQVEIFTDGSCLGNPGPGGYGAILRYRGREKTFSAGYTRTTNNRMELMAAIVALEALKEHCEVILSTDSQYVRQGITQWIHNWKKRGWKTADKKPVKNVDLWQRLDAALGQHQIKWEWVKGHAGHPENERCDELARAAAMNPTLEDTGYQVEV
Description: enzyme reaction in vitro. To be noted: purified recombinant protein, label: 5'-32P on target RNA.

A negative result means that nothing was seen under these conditions. Protein sequences can lack the tags named with them. For at least one entry, the source does not settle the construct or the ends of the probe.

Consider “AGCUCCCAGGCUCAGAUC / GAUCUGAGCCUGGGAGCU [3',5'-RNA 18-mer/HIV R region RNA]”, for which the “activity on this sequence” value (no RNase H degradation, variant of DNA 18-mer/HIV R region RNA) was “not active”.
Consider “AGCTCCCAGGCTCAGATC [DNA 18-mer/HIV R region RNA]”, for which, where the note is “target RNA degraded, Mn2+ or Mg2+, 25 C, DNA:RNA hybrid”, the “activity on this sequence” value is “active”.

These data come from patent US20090105467.
